Test system: CDD-1
Assay: steady-state hydrolysis, spectrophotometric, Michaelis-Menten fit
Details: conditions as in cited earlier work on class D beta-lactamases

CC1(C)S[C@@H]2[C@H](NC(=O)[C@H](N)c3ccccc3)C(=O)N2[C@H]1C(=O)O
Km: 2.7 µM

Reference: publication PMC6299217, “Intrinsic Class D β-Lactamases of Clostridium difficile” (2018)
